Compound potency records, mixed from different reports. Data source: NIAID ChemDB in PubChem.

Shared fields: growth or infection tests; agent: Candida albicans; measure: Mean MIC

Conditions beyond the fields shown may differ between rows.

compound,strain or isolate,value
OC[C@@H]1CO[C@](Cn2ccnc2)(c2ccc(-c3ccccc3)cc2)O1,44 strains,151.1 µg/mL
CCC1CCCC(CC)C(=O)NCCCC(CC)C(OC2OC(C)C(O)C(N)C2OC2OC(CO)C(OC3OC(CO)C(O)C(O)C3O)C(O)C2O)CC1,12 strains,50.8 µg/mL
O=[N+]([O-])c1ccccc1CNc1cccc(Cn2ccnc2)c1,27 strains,75 µg/mL
CCN1CCC(O)(/C=C/c2ccc(Cl)cc2)C(C(=O)/C=C/c2ccc(Cl)cc2)C1,10 strains,11.25 µM
Cc1ccc(-c2ccc(Cl)cc2)n1-c1ccc(Cl)cc1,20 strains,>200 µg/mL
O=C(Nc1cccc(Cn2ccnc2)c1)c1cccc([N+](=O)[O-])c1,27 strains,200 µg/mL
Fc1ccc(C(c2nccc3ccccc23)n2ccnc2)cc1.O=[N+]([O-])O,44 strains,88.4 µg/mL
CCN1CCC(O)(/C=C/c2ccc(OC)cc2)C(C(=O)/C=C/c2ccc(OC)cc2)C1,10 strains,100 µM
Cc1c(C(=O)O)c(-c2ccc(Br)cc2)cn1-c1ccc(Cl)cc1,40 strains,17.32 µg/mL
O=C(Nc1ccc(Cn2ccnc2)cc1)c1cccc([N+](=O)[O-])c1,27 strains,91.96 µg/mL
Cn1cc(-c2ccccc2)c(C(c2cccs2)n2ccnc2)c1,33 strains,>256 µg/mL
Clc1cccc(Cl)c1COc1ccc(C(c2nccc3ccccc23)n2ccnc2)cc1,17 strains,≥256 µg/mL
Cn1cc(-c2ccccc2)c(C(c2ccsc2)n2ccnc2)c1,33 strains,>256 µg/mL
Clc1ccc(C(Cn2ccnc2)OCc2csc3c(Cl)cccc23)c(Cl)c1,10 strains,4.64 µg/mL
Cc1ccc(-c2cn(-c3ccc(C)cc3)c(C)c2C(=O)O)cc1,40 strains,93.79 µg/mL
Cc1ccc(C(c2cccc3ccccc23)n2ccnc2)cc1,23 strains,20.5 µg/mL
Cc1cc(CN(C)C)c(C)n1-c1ccc(Cl)cc1Cl,20 strains,32.8 µg/mL
Clc1ccccc1COc1ccc(C(c2ccc(-c3ccccc3)cc2)n2ccnc2)cc1.O=[N+]([O-])O,17 strains,≥256 µg/mL
Cc1c(CNc2ccccc2)cc(-c2ccccc2)n1-c1ccc(Cl)cc1Cl,20 strains,>200 µg/mL
Clc1ccc(COc2ccc(C(c3nccc4ccccc34)n3ccnc3)cc2)cc1.O=[N+]([O-])O,16 strains,≥256 µg/mL
CC(=O)N1CCN(c2ccc(OC[C@H]3CO[C@](Cn4ccnc4)(c4ccc(-c5ccccc5)cc4)O3)cc2)CC1,44 strains,>256 µg/mL
Clc1ccccc1COc1ccc(C(c2nccc3ccccc23)n2ccnc2)cc1.O=[N+]([O-])O,16 strains,≥256 µg/mL
C[C@@H](c1ncncc1F)[C@](O)(Cn1cncn1)c1ccc(F)cc1F,100 isolates,0.12 µg/mL
Cc1c(C(=O)O)c(-c2ccc(F)cc2)cn1-c1ccc(Cl)cc1,40 strains,26.04 µg/mL
COc1cc(C=Nc2cccc(Cn3ccnc3)c2)cc(OC)c1OC,27 strains,151 µg/mL
Clc1cccc(Cl)c1COc1ccc(C(c2ccc3ccccc3c2)n2ccnc2)cc1.O=[N+]([O-])O,16 strains,≥256 µg/mL
CCC1CCCC(CC)C(=O)NCCCC(CC)C(OC2OC(C)C(O)C(N)C2OC2OC(CO)C(O)C(O)C2O)CC1,12 strains,32 µg/mL
Cc1ccc(-c2ccccc2)n1-c1ccc([N+](=O)[O-])cc1,20 strains,>200 µg/mL
CN(C)c1ccc(C=Nc2cccc(Cn3ccnc3)c2)cc1,27 strains,140 µg/mL
Cc1ccc(-n2cc(-c3ccc(F)cc3)c(C(=O)O)c2C)cc1,40 strains,11.91 µg/mL
c1ccc(Cc2ccc(C(c3nccc4ccccc34)n3ccnc3)cc2)cc1,44 strains,14.8 µg/mL
Cc1ccc(-c2cn(-c3ccc(Br)cc3)c(C)c2C(=O)O)cc1,40 strains,158 µg/mL
c1ccc(-c2c[nH]cc2C(c2ccc3ccccc3c2)n2ccnc2)cc1,33 strains,12.49 µg/mL
CCC(C)c1cc2cc3c(c(O)c2c(=O)n1C)-c1c(O)c2c(c(OC)c1CC3)O[C@H]1[C@@H](C2=O)[C@@H](O)C=C[C@H]1O,-,0.017 µg/mL
CCC(C)CC(C)CCCCCCCCC(=O)N[C@H]1C[C@@H](O)[C@H](NCCN)NC(=O)[C@@H]2[C@@H](O)CCN2C(=O)[C@H]([C@H](O)CCN)NC(=O)[C@H]([C@H](O)[C@@H](O)c2ccc(O)cc2)NC(=O)[C@@H]2C[C@@H](O)CN2C(=O)[C@H]([C@@H](C)O)NC1=O,40 isolates,0.37 µg/mL
Cn1cc(-c2ccccc2)c(C(c2ccc(Cl)s2)n2ccnc2)c1,33 strains,>256 µg/mL
CS(=O)(=O)OC[C@H]1CO[C@](Cn2ccnc2)(c2ccc(-c3ccccc3)cc2)O1,44 strains,198 µg/mL
Oc1ccc(C(c2nccc3ccccc23)n2ccnc2)cc1,44 strains,>256 µg/mL
Cc1ccc(-c2ccc(Cl)cc2)n1-c1ccc(Cl)cc1Cl,20 strains,>200 µg/mL
Cn1cc(-c2ccccc2)c(C(c2cccc3ccccc23)n2ccnc2)c1,33 strains,16.27 µg/mL

For reference, 5 entries again:

compound,strain or isolate,value
Cc1c(CNc2ccccc2)cc(-c2ccccc2)n1-c1ccc(Cl)cc1Cl,20 strains,>200 µg/mL
c1ccc(Cc2ccc(C(c3nccc4ccccc34)n3ccnc3)cc2)cc1,44 strains,14.8 µg/mL
Cn1cc(-c2ccccc2)c(C(c2cccc3ccccc23)n2ccnc2)c1,33 strains,16.27 µg/mL
CCN1CCC(O)(/C=C/c2ccc(OC)cc2)C(C(=O)/C=C/c2ccc(OC)cc2)C1,10 strains,100 µM
CCN1CCC(O)(/C=C/c2ccc(Cl)cc2)C(C(=O)/C=C/c2ccc(Cl)cc2)C1,10 strains,11.25 µM

An empty or dashed field is not shown.